Source: ChEMBL document CHEMBL3988442, “University of Dundee, Small-Polar-MMV Screening Library” (2021).

A: 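Growth of Mycobacterium tuberculosis over 3 days (7H9 medium with glucose and tyloxapol); the read-out is not stated. Concentration: 50 µM. Higher reads as more growth inhibition (inferred: compounds with an IC50 in retests scored well above the rest). Of about 69,000 compounds tested this way, about 760 (1.1%) reached 50% or more in at least one test.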
B: 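Whole-cell growth test on Mycobacterium tuberculosis, read after 4 days in a medium based on cholesterol and the lipid DPPC; the read-out is not stated. Concentration: 50 µM. Direction is inferred from retests: higher values go with more growth inhibition. Of about 69,000 compounds tested this way, about 370 (0.54%) reached 50% or more in at least one test.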

Results are given as percent effect. The record does not define 0% and 100%; most values in the screen are far below 50% and negative numbers occur (in some assays of this library far below -100). Many other results are left out here, so strong results are more common than in the screen. Two or more numbers in one place are separate tests of the same structure; such repeats can differ widely.

Result for Cc1ccc(CN(CCCn2ccnc2)Cc2ccccc2O)s1.O=C(O)CC(O)(CC(=O)O)C(=O)O was A: 2.427%; B: -27.39%.
Result for c1ccc(-c2nc(CCNCc3cccnc3)co2)cc1 was B: 4.346% and -1.059%.
Result for O=C(c1cc(C2CC2)[nH]n1)N1CCN(Cc2ccc3c(c2)OCO3)CC1 was A: 66.25% and 88.71%; B: 68.4%.
Result for COc1cccn(CC(=O)N(C)CCC2CCOCC2)c1=O was B: 100.4%.
Result for Cc1cccnc1CN(C)C(C(=O)O)c1ccc(-c2ccn[nH]2)cc1 (stereo unspecified) was A: 64.73%.
Result for COc1cc(Cl)c(NCc2c(C)noc2C)cc1OC was A: -35.74%; B: -8.892%.
Result for COc1cccc(-c2noc(-c3ccc(NCC(C)O)nc3)n2)c1OC (stereo unspecified) was A: 63.19%.
Result for CCC(C)Oc1ccccc1CN1Cc2ncccc2C1=O (stereo unspecified) was A: -6.249%.
Result for Cc1cn2c(n1)C(CNCc1ccc(C)s1)CCC2 (stereo unspecified) was A: -22.43%.
Result for COCCN(Cc1ccoc1)S(=O)(=O)c1ccc(F)c(C)c1 was B: 7.343%.
Result for CCCOc1cc(CNC(=O)Nc2ccc(C)cc2)ccn1 was A: -23.21%; B: 25.92%.
Result for COC(=O)CCN(C)Cc1cc(Br)cs1 was B: 21.66%.
Result for CCn1nnc2c1C(COCC(=O)N(C)C)CN(Cc1ccoc1)C2 (stereo unspecified) was B: 70.97%.
Result for CCc1csc(C2CCCN(C(=O)c3cc(C4CC4)[nH]n3)C2)n1 (stereo unspecified) was A: 50.71%.
Result for O=C(c1ccc(Cl)o1)N1CCCN(Cc2cscn2)CC1 was B: -5.198%.
Result for Cc1ccc(NC2CCN(C(=O)CCc3ccco3)CC2)nn1 was A: 4.112%.
Result for O=C(Cc1ccc2c(c1)OCO2)N1CCN(c2ccncc2)CC1 was B: -7.904%.
Result for CNC(=O)C1CCN(C(=O)c2cccn2Cc2cccs2)CC1 was A: -4.416%.
Result for CN1CCCN(C(=O)c2cc3c(s2)CCN3C(=O)c2ccccc2)CC1 was A: 16.59%.
Result for CCOCCNc1nc(C2CCCC2)nc2c1cnn2C was A: -0.1634% and 11.76%.
Result for CC(c1ccccn1)N(C)C(=O)NCCn1c(=O)oc2ccccc21 (stereo unspecified) was B: 60.36%.
Result for O=C(CCn1cccn1)NCCOc1cccc(Cl)c1 was A: -5.477%.
Result for CCN(CC)S(=O)(=O)CC(=O)Nc1ccsc1 was A: -0.711% and -24.78%.
Result for CS(=O)(=O)N1CCc2[nH]cnc2C12CCN(C(=O)c1ccccc1)CC2 was B: 73.4% and 2.447%.
Result for O=C(CN1CCCC(c2ccn[nH]2)C1)Nc1nc2c(s1)CCCC2 (stereo unspecified) was A: 50.22%; B: 16.25%.
Result for CCC[C@@H]1CN(Cc2cc3c(cc2OC)OCCO3)C[C@H]1C(=O)O was B: -0.3692% and -8.028%.
Result for COc1cccc(N2Cc3nc(=O)n(C(C)C)n3C2=O)c1 was A: 60.22%.
Result for [H][C@]12CCN(C(=O)C3CCCO3)CC[C@@]1([H])S(=O)(=O)N(CC(=O)N(C)C)C2 (stereo partly specified) was A: -18.5% and -3.578%.
Result for Cc1cn2c(n1)CCC(NC(=O)c1ccc(CS(C)(=O)=O)o1)C2 (stereo unspecified) was B: 14.7%.
Result for NS(=O)(=O)c1ccc(F)c(C(=O)NCCSc2ccccn2)c1 was A: -11.72%.
Result for COc1cccc2c3c(c(=O)[nH]c12)CCC(C)(C)O3 was A: 14.19% and 24.99%.
Result for O=C1NC2(CCCN(C(=O)CCn3cccn3)C2)Oc2ccccc21 (stereo unspecified) was B: 61.98% and 6.591%.
Result for Cc1ccc(N2CCC3(CC2)CNC(=O)CO3)nn1.O=C(O)C(F)(F)F was A: 17.16%.